The values that follow are results of earlier work, collected in PMC11676875, “In Vitro Screening of an In-House Library of Structurally Distinct Chemotypes Towards the Identification of Novel SARS-CoV-2 Inhibitors” (Pharmaceuticals, 2024).

The test system of this data set is dengue. Particulars: read-out: anti-dengue EC50; cited from earlier work.

A word on the EC50: it is the concentration that produces a half-maximal response. Take 3-(N-allyl)cytisin thiocarbamide: the EC50 is 100 nM.
